PubChem BioAssay AID624099, ICCB-Longwood – 2012

- Test: 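Knock-downs relieving repression by E2 of an HPV18 LCR luciferase reporter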 (primary screen)
- Cells: human C33A cervical carcinoma cells (HPV-negative) stably expressing BPV1 E2 and an HPV18 LCR luciferase reporter
- Knock-down reagent: siRNA pool against human genes, 40 nM
- Time to read-out: 72 h
- Detection: 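Per-well luciferase luminescence, z-scored on each plate against the plate mean and SD with control wells left out, then averaged across three replicate plates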
- Direction: mean z-score and z-score: higher = stronger reporter signal, weaker E2 silencing
- Hit rule: 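Mean z ≥ 2 together with z ≥ 2 in two or more of the three replicates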
Here is an unselected part of about 21,000 deposited reagents. In the full data, 497 (2.4%) were called active. 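Higher z means weaker E2 silencing; only reporter increases were scored, and knock-downs that hurt cell survival may mask genuine repressor factors.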 The numbers tell different reagents against one gene apart.

no.	gene	reagent no.	mean z-score	z-score, replicate A	z-score, replicate B	z-score, replicate C	Call
1	DDX10	1	-0.99	-0.64	-1.31	-1.01	inactive
2	LOC393076 (retired record)	1	-1.25	-1.41	-1.26	-1.06	inactive
3	ZNF597	1	1.07	1.5	0.6	1.11	inactive
4	KREMEN1	1	0.14	-0.03	0.28	0.17	inactive
5	TEKT4	1	-1.21	-1.16	-1.12	-1.35	inactive
6	PDLIM1	1	-0.15	-0.17	-0.05	-0.22	inactive
7	INO80	1	-1.05	-1.14	-1.29	-0.72	inactive
8	DEMA1	1	0.63	0.66	0.6	0.61	inactive
9	MYO5B	1	2.01	2.19	1.88	1.96	inactive
10	UNKL	1	-1.28	-1.27	-1.38	-1.2	inactive
11	UNKL	2	0.4	0.35	0.18	0.68	inactive
12	SH2D4A	1	0.66	0.76	0.48	0.73	inactive
13	POLM	1	0.2	0.28	0.15	0.18	inactive
14	CD99L2	1	-1.22	-1.31	-1.37	-0.99	inactive
15	ABRA	1	1.52	1.38	1.68	1.5	inactive
16	EFCC1	1	0.35	0.06	0.43	0.58	inactive
17	IL23R	1	0.13	0.26	0.1	0.03	inactive
18	NDNF	1	0.09	-0.03	0.13	0.18	inactive
19	ATP6V1H	1	-0.13	-0.15	-0.13	-0.12	inactive
20	KCTD12	1	1.38	1.52	1.1	1.53	inactive
21	NSD2	1	0.61	0.54	0.35	0.94	inactive
22	CBLN1	1	0.47	0.62	0.37	0.41	inactive
23	FAM151B	1	0.56	0.93	0.67	0.07	inactive
24	TECTA	1	-1.11	-1.2	-0.98	-1.16	inactive
25	E2F2	1	-0.88	-0.79	-0.89	-0.96	inactive
26	GALNT17	1	0.17	0.36	-0.11	0.25	inactive
27	MAPK12	1	-2.05	-1.99	-2.14	-2.03	inactive
28	EGFL6	1	-0.76	-0.9	-0.8	-0.58	inactive
29	LINC01115	1	-0.01	-0.25	0.15	0.07	inactive
30	THAP1	1	-1.12	-1.25	-1.09	-1.01	inactive
31	C20orf141	1	-0.63	-0.59	-0.71	-0.6	inactive
32	TP53BP2	1	0.48	0.52	0.32	0.61	inactive
33	LINC00161	1	-1.14	-0.97	-1.39	-1.08	inactive
34	JPH4	1	0.19	0.1	0.02	0.44	inactive
35	HIVEP1	1	0.47	0.45	0.68	0.3	inactive
36	SFTPA2B (retired record)	1	1.03	1.17	0.88	1.03	inactive
37	NSUN5P2	1	-1.63	-1.65	-1.66	-1.57	inactive
38	KCNA1	1	0.31	0.24	0.44	0.25	inactive
39	GPX2	1	0.16	0	0.17	0.31	inactive
40	SPATA31D5P	1	-0.01	0.06	0.09	-0.19	inactive
41	TAS2R1	1	0.19	0.24	0.18	0.14	inactive
42	LOC389365 (retired record)	1	0.27	0.18	0.13	0.5	inactive
43	CAMK2D	1	2.47	2.46	2.15	2.8	active
44	XYLT1	1	1.8	1.56	2.18	1.66	inactive
45	LOC100288884 (retired record)	1	-0.39	-0.43	-0.47	-0.28	inactive
46	WDR55	1	-1.23	-1.19	-1.36	-1.14	inactive
47	ZNF627	1	-0.32	0.07	-0.58	-0.46	inactive
48	G0S2	1	1.69	1.79	1.88	1.41	inactive
49	CPLANE1	1	-0.52	-0.04	-0.52	-1	inactive
50	KLC1	1	0.15	0.18	-0.06	0.32	inactive
51	ARHGEF38	1	-0.82	-1	-0.67	-0.8	inactive
52	ARHGEF38	2	-1.26	-0.66	-1.78	-1.33	inactive
53	RPS12P4	1	0.51	0.4	0.77	0.34	inactive
54	C20orf144	1	0.1	-0.08	-0.42	0.8	inactive
55	SCN11A	1	-0.9	-0.9	-0.73	-1.07	inactive
56	SIVA1	1	-1.16	-1.21	-1.18	-1.1	inactive
57	SDHB	1	-0.16	0.27	-0.61	-0.16	inactive

An excerpt taken from the entries so far, as a working copy:
no.	gene	reagent no.	mean z-score	z-score, replicate A	z-score, replicate B	z-score, replicate C	Call
43	CAMK2D	1	2.47	2.46	2.15	2.8	active
44	XYLT1	1	1.8	1.56	2.18	1.66	inactive
45	LOC100288884 (retired record)	1	-0.39	-0.43	-0.47	-0.28	inactive
